Reference: paper PMC11881016, “Deep‐Learning‐Based Approaches for Rational Design of Stapled Peptides With High Antimicrobial Activity and Stability” (Microbial Biotechnology, 2025)
*1 amine or outer side, *2 acyl side, *3 side chain or, on linkers, in order; H or OH if unused. Where a SMILES comes first, the peptide text is derived from it. Bridges are numbered along the chain shown (N, C = ends). Where no end group is shown, it is not given here. [ ]: non-standard residue; d: D form. X1 = O=C([C@H](CCCCNCC=[*:3])N[*:1])[*:2]

Test: Circular dichroism (CD) spectra assay
Assay type: physicochemical
Settings: PBS with 100 mM SDS, peptide 0.1 mg/mL, 190–260 nm, 25°C

In order of rising “α‐helix” value:
1. CC[C@H](C)[C@H](NC(=O)[C@@H](N)CCCNC(=N)N)C(=O)N[C@@H](CC(C)C)C(=O)N[C@@H](CCCNC(=N)N)C(=O)N[C@@H](CCCCN)C(=O)N[C@@H](CC(C)C)C(=O)N[C@@H](CCCNC(=N)N)C(=O)N[C@H]1CCCCNC/C=C/CNCCCC[C@@H](C(=O)O)NC(=O)[C@H](CC(C)C)NC(=O)[C@H](Cc2ccccc2)NC(=O)[C@H](CCCNC(=N)N)NC1=O [GAN‐P2‐4‐St] (H-RILRKLR[X1]RFL[X1]-OH; staple (E) 8-12)  34%
2. CC[C@H](C)[C@H](NC(=O)[C@H](CCCNC(=N)N)NC(=O)[C@H](CCCCN)NC(=O)[C@@H](N)Cc1c[nH]c2ccccc12)C(=O)N[C@@H](C)C(=O)N[C@@H](CCCNC(=N)N)C(=O)N[C@H]1CCCCNC/C=C/CNCCCC[C@@H](C(=O)N[C@@H](CC(C)C)C(=O)NCC(=O)N[C@@H](CCCNC(=N)N)C(=O)N[C@@H](C)C(=O)N[C@@H](CCCCN)C(=O)N[C@@H](CC(C)C)C(=O)N[C@@H](Cc2ccccc2)C(=O)O)NC(=O)[C@H](CCCNC(=N)N)NC(=O)[C@H](CCCCN)NC(=O)[C@H](CC(C)C)NC1=O [VAE‐P3‐5‐St] (H-WKRIAR[X1]LKR[X1]LGRAKLF-OH; staple (E) 7-11)  35%
3. RILRKLRKRFLK [GAN‐P2‐4]  35%
4. WKRIAKRLKKKLGRAKLF [VAE‐P3‐3]  35%
5. RILRKLRKKFLK [GAN‐P2‐2]  58%
6. CC[C@H](C)[C@H](NC(=O)[C@@H](N)CCCNC(=N)N)C(=O)N[C@@H](CC(C)C)C(=O)N[C@@H](CCCNC(=N)N)C(=O)N[C@@H](CCCCN)C(=O)N[C@@H](CC(C)C)C(=O)N[C@@H](CCCNC(=N)N)C(=O)N[C@H]1CCCCNC/C=C/CNCCCC[C@@H](C(=O)O)NC(=O)[C@H](CC(C)C)NC(=O)[C@H](Cc2ccccc2)NC(=O)[C@H](CCCCN)NC1=O [GAN‐P2‐2‐St] (H-RILRKLR[X1]KFL[X1]-OH; staple (E) 8-12)  75%
7. CC[C@H](C)[C@H](NC(=O)[C@@H](N)CCCNC(=N)N)C(=O)N[C@@H](CC(C)C)C(=O)N[C@@H](CCCNC(=N)N)C(=O)N[C@@H](CCCCN)C(=O)N[C@@H](CC(C)C)C(=O)N[C@@H](CCCCN)C(=O)N[C@H]1CCCCNC/C=C/CNCCCC[C@@H](C(=O)O)NC(=O)[C@H](CC(C)C)NC(=O)[C@H](Cc2ccccc2)NC(=O)[C@H](CCCNC(=N)N)NC1=O [GAN‐P2‐3‐St] (H-RILRKLK[X1]RFL[X1]-OH; staple (E) 8-12)  75%
8. RILRKLKKRFLK [GAN‐P2‐3]  75%
9. WKRIARKLKRKLGRAKLF [VAE‐P3‐5]  76%
10. CC[C@H](C)[C@H](NC(=O)[C@H](CCCNC(=N)N)NC(=O)[C@H](CCCCN)NC(=O)[C@@H](N)Cc1c[nH]c2ccccc12)C(=O)N[C@@H](C)C(=O)N[C@H]1CCCCNC/C=C/CNCCCC[C@@H](C(=O)N[C@@H](CCCCN)C(=O)N[C@@H](CC(C)C)C(=O)NCC(=O)N[C@@H](CCCNC(=N)N)C(=O)N[C@@H](C)C(=O)N[C@@H](CCCCN)C(=O)N[C@@H](CC(C)C)C(=O)N[C@@H](Cc2ccccc2)C(=O)O)NC(=O)[C@H](CCCCN)NC(=O)[C@H](CC(C)C)NC(=O)[C@H](CCCNC(=N)N)NC1=O [VAE‐P3‐3‐St] (H-WKRIA[X1]RLK[X1]KLGRAKLF-OH; staple (E) 6-10)  80%
